Measured values: publication PMC10971446 (Marine Drugs, 2024)

Tested on: ACh-responsive mouse DRG neurons (α3β4 and α6β4 nAChRs)
Assay: Constellation Pharmacology protocol one: ACh-induced calcium influx in DRG neurons
Conditions: 10 μM peptide, 1 mM ACh; of 220 ACh-responsive neurons, six trials; experiment-wide threshold

With `CC(C)C[C@@H]1NC(=O)[C@H](CCC(=O)O)NC(=O)[C@@H]2CCCN2C(=O)[C@H](Cc2c[nH]cn2)NC(=O)[C@H](CC(N)=O)NC(=O)[C@H](C(C)C)NC(=O)[C@H](CO)NC(=O)[C@@H]2CSSC[C@H](NC(=O)CNC(=O)[C@@H]3CCC(=O)N3)C(=O)N[C@@H](CSSC[C@@H](C(=O)N[C@@H](Cc3c[nH]c4ccccc34)C(=O)O)NC1=O)C(=O)N[C@@H](CO)C(=O)N[C@@H](Cc1c[nH]cn1)C(=O)N1CCC[C@H]1C(=O)N[C@@H](C)C(=O)N2` [αCtx-AtIA] the “cells with significant block for both αCtx-PeIA and αCtx-AtIA” value was 104 cells and the “cells with significant block with αCtx-PeIA and non-significant block with αCtx-AtIA” value was 101 cells.
